Mutational interference map of HIV-1 RNA dimerization

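Mutant RNA libraries with 1G, 2G or 3G starts, with or without cap, were folded at 37 °C for 30 min. High salt was 300 mM KCl and 5 mM MgCl2, low salt 40 mM KCl and 0.1 mM MgCl2; monomer and dimer were parted on a native gel. Mutation frequencies in the two bands give Kdimer.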

The 5' region of HIV-1 NL4-3 RNA (positions 1-437):
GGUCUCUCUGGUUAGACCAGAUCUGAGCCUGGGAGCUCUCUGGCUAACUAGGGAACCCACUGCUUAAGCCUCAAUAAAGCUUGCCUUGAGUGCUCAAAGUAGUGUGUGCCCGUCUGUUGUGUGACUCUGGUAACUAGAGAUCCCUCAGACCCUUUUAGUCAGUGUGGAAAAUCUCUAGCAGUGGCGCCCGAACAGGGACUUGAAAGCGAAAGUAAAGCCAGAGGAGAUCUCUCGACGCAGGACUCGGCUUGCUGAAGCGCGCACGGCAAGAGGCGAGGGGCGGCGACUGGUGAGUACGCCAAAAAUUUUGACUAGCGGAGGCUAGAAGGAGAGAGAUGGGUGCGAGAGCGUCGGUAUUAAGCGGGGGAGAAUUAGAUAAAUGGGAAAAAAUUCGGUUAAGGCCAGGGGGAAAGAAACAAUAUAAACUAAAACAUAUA

Values are log2 Kdimer, the median over the changes at each position: higher means that changes there hinder dimer formation, below 0 that they favour it.
One numbering serves 1G, 2G and 3G.
A position is written with its base.

* A256 (domain SL1) -> 3G capped low-salt 1.44; 3G uncapped low-salt 1.59
* G257 (domain SL1) -> 3G capped low-salt 4.39; 3G uncapped low-salt 1.21
* C258 (domain SL1) -> 3G capped low-salt 3.47; 3G uncapped low-salt 3.55
* G259 (domain SL1) -> 3G capped low-salt 3.63; 3G uncapped low-salt 3.90
* C260 (domain SL1) -> 3G capped low-salt 3.66; 3G uncapped low-salt 3.71
* G261 (domain SL1) -> 3G capped low-salt 3.59; 3G uncapped low-salt 4.04
* C262 (domain SL1) -> 3G capped low-salt 3.32; 3G uncapped low-salt 3.86
* A263 (domain SL1) -> 3G capped low-salt 1.13; 3G uncapped low-salt 1.17
* C264 (domain SL1) -> 3G capped low-salt 2.92; 3G uncapped low-salt 3.69
* G265 (domain SL1) -> 3G capped low-salt 3.25; 3G uncapped low-salt 3.38
* G266 (domain SL1) -> 3G capped low-salt 3.56; 3G uncapped low-salt 4.38
* C267 (domain SL1) -> 3G capped low-salt 3.22; 3G uncapped low-salt 3.53
* A268 (domain SL1) -> 3G capped low-salt 3.06; 3G uncapped low-salt 3.36
* A269 (domain SL1) -> 3G capped low-salt 1.70; 3G uncapped low-salt 1.69
* G270 (domain SL1) -> 3G capped low-salt 1.04; 3G uncapped low-salt 1.02
* A271 (domain SL1) -> 3G capped low-salt -0.24; 3G uncapped low-salt -0.15
* G272 (domain SL1) -> 3G capped low-salt -0.14; 3G uncapped low-salt -0.43
* G273 (domain SL1) -> 3G capped low-salt -0.11; 3G uncapped low-salt -0.57
* C274 (domain SL1) -> 3G capped low-salt 1.23; 3G uncapped low-salt 1.24
* G275 (domain SL1) -> 3G capped low-salt 2.47; 3G uncapped low-salt 2.66
* A276 (domain SL1) -> 3G capped low-salt 2.97; 3G uncapped low-salt 3.14
* G277 (domain SL1) -> 3G capped low-salt 2.48; 3G uncapped low-salt 2.66
* G278 -> 3G capped low-salt 0.59; 3G uncapped low-salt 0.26
* G279 -> 3G capped low-salt -0.19; 3G uncapped low-salt -0.33
* G280 -> 3G capped low-salt -0.43; 3G uncapped low-salt -0.52
* C281 -> 3G capped low-salt 0.68; 3G uncapped low-salt 0.54
* G282 -> 3G capped low-salt 1.24; 3G uncapped low-salt 1.29
* G283 (domain SL2) -> 3G capped low-salt -0.01; 3G uncapped low-salt 0.13
* C284 (domain SL2) -> 3G capped low-salt 0.22; 3G uncapped low-salt 0.50
* G285 (domain SL2) -> 3G capped low-salt 1.33; 3G uncapped low-salt 1.69
* A286 (domain SL2) -> 3G capped low-salt 0.20; 3G uncapped low-salt 0.54
* C287 (domain SL2) -> 3G capped low-salt -0.79; 3G uncapped low-salt -0.78
* U288 (domain SL2) -> 3G capped low-salt -0.13; 3G uncapped low-salt -0.06
* G289 (domain SL2) -> 3G capped low-salt 0.23; 3G uncapped low-salt 0.16
* G290 (domain SL2) -> 3G capped low-salt 0.30; 3G uncapped low-salt 0.44
* U291 (domain SL2) -> 3G capped low-salt -0.18; 3G uncapped low-salt -0.24
* G292 (domain SL2) -> 3G capped low-salt -0.19; 3G uncapped low-salt -0.22

Excerpt, the final 4 entries:

For G289 (domain SL2) the result was 3G capped low-salt 0.23; 3G uncapped low-salt 0.16.
For G290 (domain SL2) the result was 3G capped low-salt 0.30; 3G uncapped low-salt 0.44.
For U291 (domain SL2) the result was 3G capped low-salt -0.18; 3G uncapped low-salt -0.24.
For G292 (domain SL2) the result was 3G capped low-salt -0.19; 3G uncapped low-salt -0.22.

Reference: Ye et al. 2022, doi:10.1038/s41594-022-00746-2.